# Experimental data published in patent publication US20160305948A1 (GOVEMMENT OF THE US AS REPRESENTED BY THE SECRETARY OF THE …, published 2016).
# B1: c8-GS-3k (VHH)
# VHH: EVQLQASGGGLVQGGDSLRLSCAASGRTLGDYGVAWFRQAPGKEREFVSVISRSTIITDYANSVKGRFTISRDNAKNAVYLQMNSLKPEDTAVYYCAVIANPVYATSRNSDDYGHWGQGTQVTVSS
# Target: ricin A chain (UniProt P02879 36-302)
binder,measurement,value
B1,fold signal increase against C8 sdAb,1.4 fold
